# Experimental data from the supplement of paper PMC3578754.
# Fold change is the IC50 on the isolate divided by the IC50 on a reference virus; 1 = unchanged, higher = more resistant. Changes are given against the subtype B consensus. No active / inactive call. The values were gathered from many studies (numbered anew) with different assays, which the source does not name. Most viruses are clinical isolates; some are laboratory strains or clones with known resistance changes. Isolates with mixed residues are left out; stretches that were not sequenced show no change. Round top values that many isolates share are read here as limits; other very high values and 0.1 may be limits too. The protease changes I3V and N37S, insertions and deletions cannot be read from the source.
# Legend:
# Assay in all cases: fold change of IC50 against reference virus; higher = more resistant; Cell-culture drug susceptibility tests of virus bearing the protease of each isolate, gathered from many studies.
# nelfinavir = compound: Cc1c(O)cccc1C(=O)N[C@@H](CSc1ccccc1)[C@H](O)CN1C[C@H]2CCCC[C@H]2C[C@H]1C(=O)NC(C)(C)C [nelfinavir]
# saquinavir = compound: CC(C)(C)NC(=O)[C@@H]1C[C@@H]2CCCC[C@@H]2CN1C[C@@H](O)[C@H](Cc1ccccc1)NC(=O)[C@H](CC(N)=O)NC(=O)c1ccc2ccccc2n1 [saquinavir]
# ritonavir = compound: CC(C)c1nc(CN(C)C(=O)N[C@H](C(=O)N[C@@H](Cc2ccccc2)C[C@H](O)[C@H](Cc2ccccc2)NC(=O)OCc2cncs2)C(C)C)cs1 [ritonavir]
# indinavir = compound: CC(C)(C)NC(=O)[C@@H]1CN(Cc2cccnc2)CCN1C[C@@H](O)C[C@@H](Cc1ccccc1)C(=O)N[C@H]1c2ccccc2C[C@H]1O [indinavir]
Test System,fold change of IC50 against reference virus (nelfinavir),fold change of IC50 against reference virus (saquinavir),fold change of IC50 against reference virus (ritonavir),fold change of IC50 against reference virus (indinavir)
"HIV-1 isolate 1333 (protease changes: L10I K20I E35D M36I R41K M46I I62V L63P A71I I72T G73S I84V L90M I93L, study 123)",68,89,30,38
"HIV-1 isolate 1544 (protease changes: I13V E35D M36I R41K L63P I64V V77I, study 54)",2.7,1,2.8,1
"HIV-1 isolate 264 (protease changes: D30N E35D M36I L63P, study 89)",8,2,1,1
"HIV-1 isolate 541 (protease changes: L10I I64V V77I N88S, study 107)",14.6,2.4,0.6,2.5
"HIV-1 isolate 297 (protease changes: E35D N37E I62V L63P I64V A71T L90M, study 57)",2,4,3,5
"HIV-1 isolate 484 (protease changes: L10T R41K G48V D60N L63P T74S V77I V82A, study 57)",5,7,5,5
"HIV-1 isolate 125 (protease changes: D30N L63P V77I N88D L90M, study 66)",67,3.9,3.1,2.3
"HIV-1 isolate 877 (protease changes: I13V K20I E35D M36I I54V L63P I66F A71V V82T, study 120)",27.8,3.2,27.8,25.3
"HIV-1 isolate 1030 (protease changes: L10I K20R M36I I54V L63P A71V V82T I84V L90M, study 110)",34.7,91,100,20.3
"HIV-1 isolate 12 (protease changes: K14R L63P, study 54)",0.7,0.7,1.1,0.8
"HIV-1 isolate 54 (protease changes: L10F D30N L33F I54L L63P A71V V77I N88D L90M, study 66)",109,6.1,4.7,1.1
"HIV-1 isolate 1253 (protease changes: N37C L63Q I64V, study 15)",0.7,0.7,0.6,0.7
"HIV-1 isolate 715 (protease changes: D30N M46I R57G L63P N88D, study 110)",24.7,0.9,1,1.2
"HIV-1 isolate 312 (protease changes: T12K L19V E35D M36I N37D M46I L63P A71T V82I N88D L90M I93L, study 120)",7.8,4.9,12.6,2.7
"HIV-1 isolate 1517 (protease changes: K14R M46I I54V A71V V82A, study 38)",2,2,7,3
"HIV-1 isolate 1422 (protease changes: I13V E35D M36I I62V L63P I64L, study 89)",1,1,1,1
"HIV-1 isolate 678 (protease changes: D30N M36I I54V L63P A71V N88D L90M, study 66)",140,46,27,12
"HIV-1 isolate 1169 (protease changes: none, study 38)",1,1,1,1
"HIV-1 isolate 708 (protease changes: G48V R57G L90M, study 110)",3,12.9,4.4,3.7
"HIV-1 isolate 1441 (protease changes: L10V M36I M46I G48V D60E L63Q I64V I72V L90M, study 57)",2,7,3,1
"HIV-1 isolate 1208 (protease changes: K20R D30N M36I F53L I54V L63P A71V N88D L90M, study 66)",550,72,35,8.4
"HIV-1 isolate 83 (protease changes: I13V K14R K20I M36I R41K I64L H69K L89M I93M N98I, study 114)",0.5,0.6,0.6,0.4
"HIV-1 isolate 1353 (protease changes: K20R D30N M36I L63H A71V, study 110)",11.1,0.4,0.9,0.9
"HIV-1 isolate 570 (protease changes: T12S I15V L19I M36I R41K H69K I93L, study 139)",1,1,1,1
"HIV-1 isolate 24 (protease changes: T12S I15V L19I M36I R41K L63V H69K L89M I93L, study 139)",1,1,1,1
"HIV-1 isolate 187 (protease changes: L10I L63P A71T V77I I85V L90M, study 54)",2.5,1.3,3,1.2
"HIV-1 isolate 680 (protease changes: L63P I64M K70R, study 54)",0.5,0.4,0.6,0.5

Test System,fold change of IC50 against reference virus (nelfinavir),fold change of IC50 against reference virus (saquinavir),fold change of IC50 against reference virus (ritonavir),fold change of IC50 against reference virus (indinavir)
"HIV-1 isolate 118 (protease changes: D30N M36I L63P A71T N88D L90M, study 66)",124,4.4,3.6,2.6
"HIV-1 isolate 1364 (protease changes: L10F D30N L63P A71T V77I N88D L90M, study 66)",140,21,10.2,5.2
"HIV-1 isolate 968 (protease changes: L63S K70R, study 54)",0.5,0.5,0.6,0.4
"HIV-1 isolate 841 (protease changes: D30N N88D, study 61)",6,0.3,0.2,0.1
"HIV-1 isolate 1500 (protease changes: V82T, study 38)",3,1,3,1
"HIV-1 isolate 366 (protease changes: L10I M36I R41K I64V I93L, study 127)",1.3,1,0.9,0.7
"HIV-1 isolate 1173 (protease changes: L10I I13V I15V D30N I62V L63I A71T I93L, study 89)",5,1,1,1
"HIV-1 isolate 1577 (protease changes: L10I K14R I15V E35D R41K L63P V77I I93L, study 54)",1.2,0.8,0.9,0.8
"HIV-1 isolate 1388 (protease changes: K14R L63P, study 54)",2.5,1.3,2.8,1.3
"HIV-1 isolate 564 (protease changes: T12S K14R I15V L19I M36I R41K L63S H69K T74S L89M I93L, study 114)",0.6,0.6,0.7,0.6
"HIV-1 isolate 809 (protease changes: K14R I15V R41K L63I V77I, study 57)",1,2,1,1
"HIV-1 isolate 473 (protease changes: T12S I15V L19I M36I R41K Q61N H69K L89M I93L, study 139)",0.2,0.6,1,0.4
"HIV-1 isolate 611 (protease changes: D30N R57G N88D, study 110)",7.1,0.5,0.4,0.5
"HIV-1 isolate 79 (protease changes: L10I K20R E35D M36I I54V I62V L63S I64M A71V I84V L89I L90M Q92K, study 15)",102,186,105,12
"HIV-1 isolate 775 (protease changes: L10I T12A K14R D60E L63C I64V A71V L90M I93L, study 57)",2,3,1,1
"HIV-1 isolate 871 (protease changes: L10I I15V V32I P39S R41K M46L L63P K70R A71V V82A, study 127)",4.5,0.7,16.5,4.3
"HIV-1 isolate 1646 (protease changes: D30N M46I A71V, study 61)",30.6,0.3,0.8,0.6
"HIV-1 isolate 573 (protease changes: L10I G17E N37D K43T G48V I54V L63P C67S A71V V77I V82A I84V I93L, study 112)",11,574,62.2,12
"HIV-1 isolate 1406 (protease changes: T12S I15V L19I M36I R41K L63V H69K L89M I93L, study 139)",1,1,3,1
"HIV-1 isolate 1627 (protease changes: I13V R41K I64V H69Y, study 15)",0.8,0.6,0.5,0.7
"HIV-1 isolate 781 (protease changes: D30N L33F L63P A71T N88D L90M, study 66)",74,5.2,3.3,3.5
"HIV-1 isolate 938 (protease changes: D60E L63A, study 15)",1.1,1,0.9,1
"HIV-1 isolate 1077 (protease changes: L10I K14R R41K G48V L63Q I64V V82A, study 120)",3,5.5,7.3,1.6
"HIV-1 isolate 192 (protease changes: I84V, study 61)",4.3,3,16,10.6
"HIV-1 isolate 739 (protease changes: E35D L63P I64V V77I I93L, study 54)",1.4,0.3,0.5,0.5
"HIV-1 isolate 259 (protease changes: D30N L63P V77I N88D L90M, study 66)",74,7.1,4,3.2
"HIV-1 isolate 427 (protease changes: L10I E35D R41K I62V L63P V77I I93L, study 54)",1.8,0.6,0.9,0.9
